Structures can show the parent of a compound that is named as a salt. Where two headings read alike, the source gives them in different places.
Target: PrP^Sc-seeded misfolding of ovine PrP^C (tg338 mouse brain homogenate seeded with scrapie brain homogenate) (Ovis aries, UniProt P23907, A136V/R171Q)
Conditions: sPMCA

SMILES	Inhibition of PrP^Sc-seeded misfolding (1 μM)	Percent reduction categorical score, PrP^Sc-seeded misfolding (1 μM, compared to the vehicle control (0.4% DMSO))	Inhibition of PrP^Sc-seeded misfolding (4 μM)
c1cc(-c2ccc(-c3nc4ccc(C5=NCCN5)cc4[nH]3)o2)ccc1C1=NCCN1 [DB302]	strong inhibitory activity		
N=C(N)c1ccc(-c2ccc(-c3nc4ccc(C(=N)N)cc4[nH]3)s2)cc1 [DB818A]	strong inhibitory activity		
c1ccc2[nH]c(-c3ccc(-c4ccc(C5=NCCN5)cc4)s3)nc2c1 [DB932A]	strong inhibitory activity		
Cn1c(-c2ccc(-c3ccc(C4=NCCN4)cc3)o2)nc2ccccc21 [DB948]	lacked detectable inhibition		
N=C(N)c1ccc(-c2ccc(-c3nc4ccccc4[nH]3)o2)cc1 [DB771]	lacked any measurable inhibitory activity		
c1ccc2[nH]c(-c3ccc(-c4ccc(C5=NCCN5)cc4)o3)nc2c1 [DB772, 2-(2-benzimidazolyl)-5-[4-(2-imidazolino)phenyl] furan dihydrochloride]	inhibited	2 (2 represented at least a 1/2-log reduction in seeded misfolding (i.e., percent reduction exceeds the established cutoff of ≥68%))	inhibited

— publication PMC4997874 (Antimicrobial Agents and Chemotherapy, 2016)
